Measured values as given in US9266844B2 (priority 2012, dated 2016).

Test system: SARS-CoV replicon
Conditions: CC50 XTT / EC50 replicon

SMILES: C=CCn1c(S)nnc1CSc1ccccc1[N+](=O)[O-] [SSYA10-001, 3-[(2-nitrophenyl)sulfanylmethyl]-4-prop-2-enyl-1H-1,2,4-triazole-5-thione]
- selectivity index (CC50/EC50): 30
